Consider one substance from paper PMC9558617 (ACS infectious diseases, 2022).

The subject of the data set is NADPH. Kind of data set: purified protein, by the assay type.

The term Km denotes the substrate concentration at which the rate is half of its maximum. Turning to “MtbPanG (Rv3603c) (Mycobacterium tuberculosis H37Rv)”, the Km is 2.3 ± 0.3 µM.
